Assay results reported in patent US20130202598.

Experiments:
[1] = tested on: PE-RTA-mutated cleavage site-stalk peptide
[2] = tested on: PE-RTA-cleavage site-stalk peptide (P6-P4' NS5A/B site of genotype 1b/1a)

## recombinant MBP-scNS3 fusion
[1]
  in vitro cleavage by NS3 (immunoblot with anti-PE antibodies): remained indifferent to the presence of the protease
[2]
  in vitro cleavage by NS3 (immunoblot with anti-PE antibodies): complete cleavage of the chimeric toxin
